This data set concerns the target human prothrombin, P00734.

B1: Brown snake venom protease (snake venom protease of Pseudonaja textilis, purified from the Brown sna (protein)
chain 1: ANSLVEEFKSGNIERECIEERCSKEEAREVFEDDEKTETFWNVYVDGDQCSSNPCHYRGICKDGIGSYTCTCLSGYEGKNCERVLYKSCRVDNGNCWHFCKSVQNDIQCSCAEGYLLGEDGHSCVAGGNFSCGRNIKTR
chain 2: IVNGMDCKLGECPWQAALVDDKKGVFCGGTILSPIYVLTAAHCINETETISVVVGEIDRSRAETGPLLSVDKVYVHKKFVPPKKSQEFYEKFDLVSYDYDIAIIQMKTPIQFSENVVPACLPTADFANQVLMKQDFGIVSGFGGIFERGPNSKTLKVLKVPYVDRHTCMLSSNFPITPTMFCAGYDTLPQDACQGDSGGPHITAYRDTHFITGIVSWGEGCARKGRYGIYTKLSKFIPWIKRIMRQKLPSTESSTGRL
In turn, B1 returned a Brown SVP (µg) giving a citrated plasma clotting time of 50 sec, alone of 11 µg; a Brown SVP (µg) giving a citrated plasma clotting time of 50 sec, with Ca^2+ of 0.05 µg; a Brown SVP (µg) giving a citrated plasma clotting time of 70 sec, alone of 4 µg; a Brown SVP (µg) giving a citrated plasma clotting time of 70 sec, with Ca^2+ of 0.02 µg. Besides, the Clotting time (sec) +Ca^2+, citrated plasma, Brown SVP 0.650 µg/mL was 34.7 s; the Clotting time (sec) +Ca^2+, citrated plasma, Brown SVP 1.300 µg/mL was 34.5 s; the Clotting time (sec) +Ca^2+, citrated plasma, Brown SVP 2.600 µg/mL was determined as 27.6 s; the Clotting time (sec) +Ca^2+, citrated plasma, Brown SVP 6.500 µg/mL worked out at 24 s. Further, the Clotting time (sec) +Ca^2+, citrated plasma, Brown SVP 13.000 µg/mL was determined as 23.4 s; the Clotting time (sec) +Ca^2+, citrated plasma, Brown SVP 26.000 µg/mL came to 18.7 s; the Clotting time (sec) +Ca^2+, citrated plasma, Brown SVP 39.000 µg/mL amounted to 14.9 s; the Clotting time (sec) -Ca^2+, citrated plasma, Brown SVP 0.650 µg/mL is > 100 s. The Clotting time (sec) -Ca^2+, citrated plasma, Brown SVP 1.300 µg/mL is > 100 s; the Clotting time (sec) -Ca^2+, citrated plasma, Brown SVP 2.600 µg/mL is > 100 s; the Clotting time (sec) -Ca^2+, citrated plasma, Brown SVP 6.500 µg/mL was determined as 51.6 s; the Clotting time (sec) -Ca^2+, citrated plasma, Brown SVP 13.000 µg/mL was determined as 38.4 s. Moreover, the Clotting time (sec) -Ca^2+, citrated plasma, Brown SVP 26.000 µg/mL is 35.1 s; the Clotting time (sec) -Ca^2+, citrated plasma, Brown SVP 39.000 µg/mL was found to be 27.3 s; the “SDS PAGE time course of prothrombin cleavage” value is on record as “The prothrombin is substantially gone by the 48 hour time point”; the “activity against S-2238 (thrombin formed from prothrombin by the protease)” value is “initial activity against S-2238 was very low and increased approximately 20 fold”. The protein further registered an approximate clotting time of human citrated plasma, Brown SVP alone of 120 s and an approximate clotting time of human citrated plasma, Brown SVP with 40 mM CaCl2 of 60 s.

Source of the values: patent US7745192.
